This passage reports IC50 results from US20260199483A1 (Bright Angel Therapeutics Inc., priority 2022, published 2026).

By UniProt entry, the sequences of proteins in these tests, tags left out. Residues count along the entry.
UniProt A0A1D8PKB4, 37-345 limits assumed: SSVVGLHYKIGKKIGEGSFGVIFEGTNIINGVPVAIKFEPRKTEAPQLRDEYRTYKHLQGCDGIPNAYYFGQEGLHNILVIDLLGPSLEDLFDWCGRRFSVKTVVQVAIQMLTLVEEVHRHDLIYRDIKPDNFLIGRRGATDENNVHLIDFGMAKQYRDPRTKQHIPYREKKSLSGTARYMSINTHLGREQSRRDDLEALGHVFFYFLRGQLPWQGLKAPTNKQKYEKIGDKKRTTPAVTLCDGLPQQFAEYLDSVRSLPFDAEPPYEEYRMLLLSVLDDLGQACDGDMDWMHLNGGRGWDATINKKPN

The experiment has as its target purified recombinant Yck2 (Candida albicans, UniProt A0A1D8PKB4). Put plainly: HotSpot kinase assay. Type of experiment: biochemical, C. albicans. The note with it: read-out: IC50 (IC50-nM); purified recombinant Yck2, 1 uM ATP, one hour incubation with inhibitor, 33P-ATP. On the procedure:
IC50s were determined using the in vitro HotSpot kinase assay (purified enzymes, ^33P-ATP, an appropriate substrate and 1 μM ATP). For enzyme inhibition assays, compounds were tested in range of ten concentrations from 10 uM to 0.0005 uM using purified recombinant Yck2. Reaction conditions were 1 uM ATP, one hour incubation with inhibitor, and kinase activity detected using 33-ATP phosphorylation of an appropriately selected peptide substrate.
Yck2 residues 37-345 were PCR amplified from C. albicans genomic DNA and subcloned into the vector pMCSG53, which codes for a N-terminal His6 tag, TEV protease site, followed by the Yck2 protein. E. coli BL21(DE3)-Gold competent cells were transformed with this plasmid and the Yck2 protein was purified using methodology previously described (Stogios et al., ACS Chem. Biol. 13, 1322-1332 (2018)).

As a reminder, the IC50 is the midpoint of a concentration-inhibition curve. As for `Cn1cc(-c2ccnc3c2C(=O)N(CCC2CCN(CC(O)(Cn4cncn4)c4ccc(F)cc4F)CC2)C3)c(-c2ccc(F)cc2)n1` (stereo not shown), the IC50 is 4.15 nM.
